Results of unrelated studies side by side (data: NIAID ChemDB).

Shared fields: growth or infection tests; species: HIV-1; read-out: EC50

An empty or dashed field is not shown. ECn: concentration that inhibits the pathogen or its effect by n%. Lines come from different laboratories, so protocols vary.

compound | mutations | method | cells | strain | conditions | value
CC[C@H](C)[C@H](NC(=O)c1ccccc1SSc1ccccc1C(=O)N[C@H](C(=O)O)[C@@H](C)CC)C(=O)O |  | p24 / RT activity | MT-4 | LAV-Bru |  | 2.5 µM
CNc1ccc(Cl)cc1S(=O)(=O)c1ccccc1 |  | XTT | CEM + CEM-SS | IIIB |  | 6 µM
COc1ccc(S(=O)(=O)N(CC(C)C)C[C@@H](O)[C@H](Cc2ccccc2)NC(=O)O[C@H]2CO[C@@H]3O[C@H]4OCC[C@H]4[C@@H]32)cc1 | L10F M46I I54V V82A | p24 / luminescence | MT-4 | NL4-3 |  | >1 µM
CNc1ccc(Cl)cc1S(=O)(=O)c1ccccc1[N+](=O)[O-] |  | XTT | CEM + CEM-SS | IIIB |  | 0.1 µM
Cc1cn([C@H]2C=C[C@@H](CO)O2)c(=O)[nH]c1=O | RT-A62T V118I M184V | luciferase | HeLa | Recombinant |  | 1.34 µM
Cc1cn([C@H]2C[C@H](N=[N+]=[N-])[C@@H](CO)O2)c(=O)[nH]c1=O | RT-D67N K70R T215Y | plaque count | HT4 + HT4-6C | P026B (RT D67N K70R T215Y) |  | 2.8 µM
C#Cc1ccc(Nc2nccc(Oc3c(C)cc(-c4cn(Cc5ccccc5[N+](=O)[O-])nn4)cc3C)n2)cc1 |  | MTT | MT-4 | IIIB |  | 0.048 µM
CO[P@](=O)(c1cc(C)cc(/C=C/C#N)c1)c1c(C(N)=O)[nH]c2ccc(Cl)c(F)c12 | WT | ELISA | MT-4 | NL4-3 |  | 0.002 µM
Cn1c2ccccc2c2c1cc(C#N)c(=O)n2-c1ccc([N+](=O)[O-])cc1 | RT-K103N Y188L | luciferase | HeLa | NNRTI-resistant |  | 0.0069 µM
Nc1ccn([C@H]2CC[C@@H](CO)O2)c(=O)n1 | RT-M41L M184V T215Y | plaque count | HT4 + HT4 LacZ-1 | RTMN(184) (RT M41L M184V T215Y) |  | 1.57 µM
CN[C@H]1CO[C@@H]2OCC[C@H](OC(=O)N[C@@H](Cc3cccc(OC)c3)[C@H](O)CN(CC(C)C)S(=O)(=O)c3ccc4nc(NC(C)C)sc4c3)[C@@H]21 | L23I E34Q K43I M46I I50L G51A L63P A71V V82A T91A | p24 / luminescence | MT-4 | NL4-3 |  | 0.0025 µM
CCc1c(Sc2ccccn2)n(COCc2ccccc2)c(=O)[nH]c1=O |  | cytopathic effect / XTT | MAC | BaL |  | 0.007 µM
Nc1ccn([C@H]2C=C[C@@H](CO)O2)c(=O)n1 | RT-V75T | plaque count | CD4+HELA + HeLa | HXB2 |  | 3.7 µM
Cc1cc(S(N)(=O)=O)ccc1NC(=O)COc1ccc(Cl)cc1C(=O)c1cc(Cl)cc(C#N)c1 | RT-V106I E138K P236L | β-galactosidase | MAGI | NNRTI-resistant (RT V106I E138K P236L) |  | 0.086 µM
Nc1nc(=O)n([C@H]2CS[C@@H](CO)O2)cc1F | RT-M184V | plaque count | HT4 + HT4 LacZ-1 | HXB2 |  | 300 µM
CC(C)=CCN1c2cc(Cl)cc3[nH]c(=S)n(c23)C[C@@H]1C | RT-D67N K70R T215Y K219Q |  | MT-4 |  |  | <0.05 µM
C#Cc1ccc(Nc2nccc(Oc3c(C)cc(-c4cn(Cc5ccc(C(N)=O)cc5)nn4)cc3C)n2)cc1 | Y188L | MTT | MT-4 | IIIB |  | 1.33 µM
O=c1[nH]cnc2c1ncn2[C@H]1CC[C@@H](CO)O1 |  | plaque count | CD4+HELA + HeLa | HXB2 |  | 2 µM
C#Cc1ccc(Nc2nccc(Oc3c(C)cc(-c4cn(Cc5ccccc5)nn4)cc3C)n2)cc1 | E138K | MTT | MT-4 | IIIB |  | 0.24 µM
C/C=C/CSc1cc(NC(=S)c2ccsc2C)ccc1Cl | RT-Y181C | cytopathic effect / XTT | CEM + CEM-SS | UC38-RS (RT-Y181C) |  | >2 µM
CC(C)CN(C[C@@H](O)[C@H](Cc1ccc(F)cc1)NC(=O)O[C@H]1CCO[C@H]2OCC[C@H]21)S(=O)(=O)c1ccc2nc(NC(C)C)sc2c1 | L10I I15V K20R L24I M36I M46L I54V I62V L63P K70Q V82A L89M | p24 / luminescence | PBMC | Clinical isolate | clinical isolate, multidrug-resistant | 0.0025 µM
Cc1c(C#N)cc(C(F)F)cc1Oc1c(C(F)(F)C(F)F)ncn(Cc2cc(F)c[nH]c2=O)c1=O | K103N | RT activity / fluorescence |  |  |  | 0.0251 µM
Nc1nc(=O)n([C@@H]2CS[C@H](CO)O2)cc1F |  | GFP | TZM-gfp | NL4-3 |  | 1 µM
COC(=O)N[C@H](C(=O)N[C@@H](Cc1ccccc1)[C@@H](O)CN(Cc1ccc(-c2ccccn2)cc1)NC(=O)[C@@H](NC(=O)OC)C(C)(C)C)C(C)(C)C | L10F M46I I54V V82A | p24 / luminescence | MT-4 | NL4-3 |  | >1 µM
CCCc1cc(=O)oc2c3c(c4c(c12)OC(C)(C)C=C4)O[C@H](C)[C@@H](C)[C@@H]3O | RT-T139I | XTT | CEM + CEM-SS | Calanolide A-resistant (RT T139I) |  | >27 µM
CN1N=C(N)c2cn([C@@H]3O[C@H](COP(=O)(O)O)[C@@H](O)[C@H]3O)c3ncnc1c23 |  | XTT | CEM + CEM-SS | IIIB |  | 0.02 µM
CCN[C@H]1CO[C@@H]2OCC[C@H](OC(=O)N[C@@H](Cc3cccc(OC)c3)[C@H](O)CN(CC(C)C)S(=O)(=O)c3ccc4nc(NC(C)C)sc4c3)[C@@H]21 |  | p24 / luminescence | MT-4 | NL4-3 |  | 0.0035 µM
S=C(NCCc1cccs1)Nc1ccc(Br)cn1 | RT-K20R T215Y | plaque count | HT4 + HeLa | N833-1 Clinical isolate NRTI-resistant |  | 0.05 µM
Cc1cc(C#N)cc(C)c1Oc1nc(Nc2ccc(C#N)cc2)nc(N)c1Br |  | absorbance | PBMC | 92BR014 |  | 0.0031 µM
Cc1cn([C@H]2C[C@H](N=[N+]=[N-])[C@@H](CO)O2)c(=O)[nH]c1=O |  | antigen | CEM | IIIB/LAI |  | 0.003 µM
CC(C)CN(C[C@@H](O)[C@H](Cc1ccccc1)NC(=O)O[C@H]1CCO[C@H]2OCC[C@H]21)S(=O)(=O)c1ccc2nc(NC3CC3)sc2c1 | L10I N37D G48V I54V L63P G73C I84V L90M | p24 / luminescence | MT-4 | NL4-3 |  | 0.046 µM
CC(C)CN(C[C@@H](O)[C@H](Cc1cc(F)cc(F)c1)NC(=O)O[C@H]1CCO[C@H]2OCC[C@H]21)S(=O)(=O)c1ccc2nc(NC(C)C)sc2c1 |  | p24 / luminescence | PBMC | BaL |  | 0.0002 µM
CC(C)[C@H](NC(=O)c1ccc2ccccc2n1)C(=O)N[C@@H](Cc1ccccc1)[C@H](O)CN1CC[C@@H](OCc2ccncc2)C[C@H]1C(=O)NC(C)(C)C |  | p24 / ELISA / antigen | PBMC | UHC-1 |  | 0.004 µM
Cc1ccnc2c1NC(=O)c1cccnc1N2C1CC1 |  | RT activity | PBMC | ROJO(SI) |  | 0.3 µM
C#Cc1ccc(Nc2nccc(Oc3c(C)cc(-c4cn(CC(=O)OC)nn4)cc3C)n2)cc1 | F227L and V106A | MTT | MT-4 | IIIB |  | >10.35 µM
Cc1ccnc2c1NC(=O)c1cccnc1N2C1CC1 | RT-M41L T215Y | plaque count | HT4 + HT4 LacZ-1 | HXB41L/215Y( |  | 0.05 µM
C[C@H](Cn1cnc2c(N)ncnc21)OCP(=O)(O)O | RT-M41L S68N G112S M184V | luciferase | HeLa | Recombinant |  | 0.278 µM
Cc1cn([C@H]2C[C@H](N=[N+]=[N-])[C@@H](CO)O2)c(=O)[nH]c1=O | RT-V108I | XTT | CEM + CEM-SS | NL4-3 |  | 0.008 µM
Cc1cn([C@H]2C[C@H](N=[N+]=[N-])[C@@H](CO)O2)c(=O)[nH]c1=O | AMD3100-resistant | cytopathic effect / MTS | MT-4 | NL4-3 |  | 0.0052 µM
Cc1cc(/C=C/C#N)cc(C)c1Nc1ccnc(Nc2ccc(C#N)cc2)n1 | ZA-resistant mutant | absorbance | PBMC | 92BR014 |  | 0.0009 µM
C/C=C/CSc1cc(NC(=S)c2ccsc2C)ccc1Cl |  | XTT | CEM + CEM-SS | IIIB |  | 0.05 µM
CC(C)CN(C[C@@H](O)[C@H](Cc1ccccc1)NC(=O)O[C@H]1CCOC1)S(=O)(=O)c1ccc(N)cc1 | L10F V32I M46I I54M A71V I84V | p24 / luminescence | MT-4 | NL4-3 |  | >1 µM
C#Cc1ccc(Nc2nccc(Oc3c(C)cc(-c4cn(-c5ccc(C(=O)OC)cc5)nn4)cc3C)n2)cc1 |  | MTT | MT-4 | IIIB |  | 0.013 µM
Cc1occc1C(=S)Nc1ccc(Cl)c(/C=N/OC(C)(C)C)c1 |  | cytopathic effect / XTT | CEM + CEM-SS | IIIB |  | 0.2 µM
CC(=O)c1ccc(C)cc1NC(C(N)=O)c1c(Cl)cccc1Cl | RT-Y181C | MTT | MAGI | IIIB |  | >10 µM
CC(=O)N1CCC(C(=O)N(CCCN2CCC(Cc3ccc(C(N)=O)cc3)CC2)c2ccc(C)c(Cl)c2)CC1 |  | luciferase | U87 (CD4+ CCR5+) + U87 | R5 subtype A_3 recombinant |  | 0.0057 µM
Cc1ccc(S(=O)(=O)N(CC(C)C)C[C@@H](O)[C@H](Cc2ccccc2)NC(=O)O[C@H]2CO[C@H]3OCC[C@H]32)cc1 | K112M K113E V128I | p24 / ELISA | MT-2 | IIIB |  | 0.008 µM
O=C1N(Cc2ccc(CO)cc2)[C@H](Cc2ccccc2)[C@H](O)[C@@H](O)[C@@H](Cc2ccccc2)N1Cc1ccc(CO)cc1 |  | virus yield | H9 | RF |  | <0.04 µM
Cc1ccnc2c1NC(=O)c1cccnc1N2C1CC1 |  | cytopathic effect / XTT | MT-2 | IIIB |  | 0.1 µM
Cc1ccnc2c1NC(=O)c1cccnc1N2C1CC1 | RT-K103N Y181C | cytopathic effect / XTT | CEM + CEM-SS | IIIB |  | >3.3 µM
CCn1nc(Cc2ccc(OCc3ccccc3)cc2)cc1C1CCN(C[C@H]2CN([C@@H](C(=O)O)C(C)(C)C)C[C@@H]2c2cccc(F)c2)CC1 |  | β-galactosidase | HeLa | BaL | 50% human serum | <0.3 µM
C#Cc1ccc(Nc2nccc(Oc3c(C)cc(-c4cn(-c5cccc(C(=O)OC)c5)nn4)cc3C)n2)cc1 | K103N | MTT | MT-4 | IIIB |  | 0.043 µM
CCn1nc(Cc2ccc(OC(C)(C)C)cc2)cc1C1CCN(C[C@H]2CN([C@@H](C(=O)O)C(C)C)C[C@@H]2c2cccc(F)c2)CC1 |  | β-galactosidase | HeLa | BaL | 50% human serum | <0.1 µM
CCN[C@H]1CO[C@@H]2OCC[C@H](OC(=O)N[C@@H](Cc3ccccc3)[C@H](O)CN(CC(C)C)S(=O)(=O)c3ccc4nc(NC5CC5)sc4c3)[C@@H]21 | L10I N37D G48V I54V L63P G73C I84V L90M | p24 / luminescence | MT-4 | NL4-3 |  | 0.0044 µM
COC(=O)N[C@H](C(=O)N[C@@H](Cc1ccccc1)[C@@H](O)CN(Cc1ccc(-c2ccccn2)cc1)NC(=O)[C@@H](NC(=O)OC)C(C)(C)C)C(C)(C)C |  | p24 / luminescence | PBMC | ERS104pre |  | 0.0027 µM
C#C[C@]1(CO)O[C@@H](n2cnc3c(N)nc(F)nc32)C[C@@H]1O | M41L/M184V | fluorescence | MT4-GFP | Clinical isolate |  | 0.00598 µM
Cc1ccnc2c1NC(=O)c1cccnc1N2C1CC1 | RT-V106I | cytopathic effect / XTT | CEM + CEM-SS | NL4-3 (RT V106I) |  | >2 µM
c1ccc(CNCc2ccc(CN3CCCNCCNCCCNCC3)cc2)nc1 |  | cytopathic effect / MTS | MT-4 | IIIB |  | 0.0123 µM
C#Cc1ccc(Nc2nccc(Oc3c(C)cc(-c4cn(Cc5ccc(O)cc5)nn4)cc3C)n2)cc1 | Y181C | MTT | MT-4 | IIIB |  | 0.53 µM
CC(C)CN(C[C@@H](O)[C@H](Cc1ccccc1)NC(=O)O[C@H]1CCOC1)S(=O)(=O)c1ccc(N)cc1 | K112M K113E V128I M200I H219P I401T R409K D437N L441P R41K | p24 / ELISA | MT-2 | IIIB |  | 0.0473 µM
CCn1nc(Cc2ccc(Oc3ccccc3)cc2)cc1C1CCN(C[C@H]2CN([C@@H](C(=O)O)C3CCCCC3)C[C@@H]2c2cccc(F)c2)CC1 |  | β-galactosidase | HeLa | BaL | 50% human serum | <0.1 µM
CCc1c(CC2CCCCC2)nc(SCC(=O)c2ccccc2)[nH]c1=O |  | p24 / ELISA | C8166 | NL4-3 |  | 0.00774 µM
Cc1cn([C@H]2C[C@H](N=[N+]=[N-])[C@@H](CO)O2)c(=O)[nH]c1=O | RT-D67N K70R L100I T215Y K219Q | cytopathic effect / XTT | CEM + CEM-SS | 4XAZT+L100I (RT D67N K70R L100I T215Y K219Q) |  | 0.02 µM
CCn1nc(Cc2ccc(S(=O)(=O)c3ccccc3)cc2)cc1C1CCN(C[C@H]2CN([C@@H](C(=O)O)C(C)C)C[C@@H]2c2cccc(F)c2)CC1 |  | β-galactosidase | HeLa | BaL |  | <0.0004 µM
COC(=O)N[C@H](C(=O)N[C@@H](Cc1ccccc1)[C@@H](O)CN(Cc1ccc(-c2ccccn2)cc1)NC(=O)[C@@H](NC(=O)OC)C(C)(C)C)C(C)(C)C | I401T | p24 / ELISA | MT-2 | IIIB |  | 0.0009 µM
CC[C@@H](C)[C@H](C(=O)O)N1C[C@H](CN2CCC(c3cc(Cc4ccc(C(F)(F)F)cc4)nn3CC)CC2)[C@@H](c2cccc(F)c2)C1 |  | β-galactosidase | HeLa | BaL |  | <0.0004 µM
CCCc1cc(=O)oc2c3c(c4c(c12)OC(C)(C)C=C4)O[C@@H](C)[C@H](C)[C@@H]3O | RT-Y181C | cytopathic effect / XTT | CEM + CEM-SS | UC781-R (RT-Y181C) |  | <0.15 µM